Data from patent US20260215432A1, “ANTIMICROBIAL CONJUGATED OLIGOELECTROLYTES AND METHODS THEREOF” (National University of Singapore, priority 2023, published 2026).

System: A549 (lung epithelial cells)
Test: Cytotoxicity against mammalian cell line
Format: cell-based
Conditions: IC50 (A549) divided by MIC towards MRSA
Method: The cytotoxicity of the TPP COEs was also tested against a mammalian cell line (A549).

| Compound | Selectivity Index |
| --- | --- |
| C[N+](C)(C)CCCCCCOc1ccc(/C=C/c2ccc(OCCCCCC[N+](C)(C)C)cc2)cc1.[I-].[I-] [Compound D6, reference compound] | 1.2 |
| C[N+](C)(C)CCCCCCCCOc1ccc(/C=C/c2ccc(OCCCCCCCC[N+](C)(C)C)cc2)cc1.[I-].[I-] [Compound D8, reference compound] | 1.4 |
